Pooled drug test results. Numbers come from NIAID ChemDB, via PubChem.

All rows: tests in culture; organism: HIV-1; cells: MT-4; read-out: EC50

Two numbers with a dash give a range or band. An empty or dashed field is not shown. ECn is the concentration giving n% inhibition of infection, replication or growth. Neighbouring rows are from separate reports.

SMILES	strain	changes	read by	value
COc1cc([C@@H]2Oc3cc([C@H]4Oc5cc(O)cc(O)c5C(=O)[C@@H]4O)ccc3O[C@H]2COP(=O)(O)OC[C@H]2O[C@@H](O[C@H]3[C@H](O)[C@@H](O)[C@@H](OC)O[C@@H]3CO)[C@H](O)[C@@H](O)[C@H]2O)ccc1O	IIIB	-	MTT	>130 µM
CC(NS(=O)(=O)c1ccc(Cl)cc1)c1nnc(Nc2ccc(Br)cc2)s1	IIIB	-	MTT	>4.09 µM
COc1cc([C@@H]2Oc3cc([C@H]4Oc5cc(O)cc(O)c5C(=O)[C@@H]4O)ccc3O[C@H]2COP(=O)(O)OC[C@H]2O[C@H](O[C@H]3O[C@H](CO)[C@@H](O)[C@H](O)[C@H]3O)[C@H](O)[C@@H](O)[C@@H]2O)ccc1O	IIIB	-	MTT	>140 µM
Fc1ccccc1-c1nc(-c2nnc(C34CCC5CC(CC3C5)C4)o2)cs1	IIIB	-	MTT	>97.6 µM
N#Cc1c(SSc2nsc(-c3ccccc3)c2C#N)nsc1-c1ccccc1	IIIB	-	cytopathic effect	13.6 µg/mL
Cc1c(C(=O)c2c(F)cccc2F)nc(N(C)C)[nH]c1=O	IIIB	K103N + Y181C	MTT	>100 µM
Cc1ccnc2c1NC(=O)c1cccnc1N2C1CC1	IIIB	-	cytopathic effect	0.014 µg/mL
CC(C)c1c(Cc2ccccc2)n(COCc2ccccc2)c(=O)[nH]c1=O	A17	Y181C	p24 / ELISA	2.398 µM
Cc1ccc(S(=O)(=O)NC(C)c2nnc(Nc3ccc(Br)cc3)s2)cc1	IIIB	-	MTT	>8.09 µM
CCOCn1c(Cc2cccc(CCC3CO3)c2)c(CC)c(=O)[nH]c1=O	RT-K103N Y181C Mutant NNRTI-resistant	-	cytopathic effect / MTT	80 µM
O=c1ccn([C@H]2C=C(CO)CO2)c(=O)[nH]1	-	-	-	>100 µg/mL
Cc1ccc(-c2nnc(-c3ccc(N)cc3)o2)cc1	IIIB	-	cytopathic effect	>22 µg/mL
C=CCOc1cccc(Cc2[nH]c(=O)[nH]c(=O)c2CC)c1	RT-Y181C Mutant NNRTI-resistant	-	cytopathic effect / MTT	>20 µM
CSc1nsc(-c2ccccc2)c1C#N	IIIB	-	cytopathic effect	>125 µg/mL
CCOCn1c(Cc2ccccc2)c(C(C)C)c(=O)[nH]c1=O	RT-Y181C Mutant NNRTI-resistant	-	cytopathic effect / MTT	20 µM
Fc1ccc(-c2nc(-c3nnc(C45CCC6CC(CC4C6)C5)o3)cs2)cc1	IIIB	-	MTT	>75.2 µM
C=CCOc1cccc(Cc2nc(SC(C)C)nc(OC(C)C)c2CC)c1	IIIB	-	cytopathic effect / MTT	>100 µM
Cc1ccc([C@H]2C[C@]23C(=O)N(C)c2ccccc23)cc1	IIIB	-	MTT	>0.39 µg/mL
N#Cc1c(N)c2cc(Br)ccc2n(-c2ccc([N+](=O)[O-])cc2)c1=O	IIIB	-	GFP / reporter gene	>100 µM
Cc1ccc(-c2nnc(-c3ccc(NS(=O)(=O)c4ccc(C)cc4)cc3)o2)cc1	IIIB	-	cytopathic effect	>89 µg/mL
O=c1[nH]c(=O)n([C@H]2C=C(CO)CO2)cc1Cl	-	-	-	>100 µg/mL
CN1C(=O)[C@]2(C[C@@H]2c2ccc(Cl)cc2)c2ccccc21	IIIB	-	MTT	>7.6 µg/mL
C=CCOc1cccc(Cc2c(CC)c(=O)n(COCC)c(=O)n2COCC)c1	IIIB	-	cytopathic effect / MTT	>20 µM
CC(C)C(NS(=O)(=O)c1ccc(Br)cc1)c1nnc(Nc2ccc(F)cc2)s1	IIIB	-	MTT	>10.08 µM
N#Cc1cc2ccc(O[C@@H]3CCNC3)cc2n(-c2ccc([N+](=O)[O-])cc2)c1=O	IIIB	-	GFP / reporter gene	1.25 µM
Cc1ccc(S(=O)(=O)NC(Cc2ccccc2)c2nnc(Nc3ccc(Br)cc3)s2)cc1	IIIB	-	MTT	>1.58 µM
Cc1c(Cl)nc(N(C)C)nc1C(C#N)c1c(F)cccc1F	IIIB	-	MTT	8 µM
CN(CC(=O)Nc1ccccc1[N+](=O)[O-])c1nnnn1-c1cccc2ccccc12	-	-	p24	<10 µM
O=C1c2ccccc2N(COCc2ccccc2)S(=O)(=O)N1Cc1ccccc1	IIIB	-	cytopathic effect	5.8–7.2 µM
N#Cc1c(-c2ccccc2)s[nH]c1=S	IIIB	-	cytopathic effect	7.8 µg/mL
COc1cc(C(C#N)c2c(F)cccc2F)nc(N(C)C)n1	IIIB	Y181C	MTT	>40 µM
CCOCn1c(Cc2cccc(OCC=O)c2)c(CC)c(=O)[nH]c1=O	RT-K103N Y181C Mutant NNRTI-resistant	-	cytopathic effect / MTT	>45 µM
Cc1nc2ccccc2c(-c2cc(F)c3c(c2C)CCCO3)c1[C@H](OC(C)(C)C)C(=O)O	NL4-3	-	luminescence	0.015 µM
COC(=O)[C@H](C)NP(=O)(OC[C@H]1CC[C@@H](n2ccc3c(N)ncnc32)C1)Oc1ccccc1	-	-	cytopathic effect / MTS	>32 µM
COc1ccccc1CCNC(=S)NC(=O)c1csc(-c2ccccc2)n1	IIIB	-	MTT	>11.72 µM
CCOC(=O)c1cc2c3cc(OC)ccc3c3ccc(Cl)cc3n2c1C	-	-	cytopathic effect / MTT	>200 µM
CC(C)C(NS(=O)(=O)c1ccc(Br)cc1)c1nnc(Nc2ccc(Br)cc2)s1	IIIB	-	MTT	>2.31 µM
COc1cccc(OC)c1C(=O)c1nc(N(C)C)nc(OC)c1C	IIIB	-	MTT	>8 µM
N#Cc1c(N)c2ccc(-c3ccccc3)cc2n(-c2ccc([N+](=O)[O-])cc2)c1=O	IIIB	-	GFP / reporter gene	20.21 µM
C=CCOc1cccc(Cc2nc(SC)[nH]c(=O)c2CC)c1	RT-K103N Y181C Mutant NNRTI-resistant	-	cytopathic effect / MTT	>80 µM
CC1(C)CC=C(c2cn(-c3nccc(C(=O)NC4CCC(N5CC6CCC(C5)O6)CC4)n3)c3ccc(F)c([C@H](OC(C)(C)C)C(=O)O)c23)CC1	NL4-3	Q148H	luminescence	0.0039 µM
Cc1cc(C)c(-n2nnnc2SCC(=O)Nc2ccc(F)cc2F)c(C)c1	-	-	p24	<10 µM
COc1cc([C@@H]2Oc3cc([C@H]4Oc5cc(O)cc(O)c5C(=O)[C@@H]4O)ccc3O[C@H]2COC[C@H]2O[C@H](OC)[C@@H](O)[C@@H](O)[C@@H]2O)ccc1O	IIIB	-	MTT	>160 µM
N#Cc1cc2ccc(O[C@H]3CCNC3)cc2n(-c2ccc([N+](=O)[O-])cc2)c1=O	IIIB	-	GFP / reporter gene	1.5 µM
Brc1cccc(-c2nc(-c3nnc(C45CCC6CC(CC4C6)C5)o3)cs2)c1	IIIB	-	MTT	>125 µM
CSCC[C@H](NS(=O)(=O)c1ccc(C)cc1)c1n[nH]c(=S)o1	IIIB	-	cytopathic effect	>71 µg/mL
Nc1ncnc2c1ccn2[C@@H]1CC[C@H](CO)C1	-	-	cytopathic effect / MTS	>500 µM
Cc1ccc(-n2c(=O)c(C#N)c(N)c3ccc(Cl)cc32)cn1	IIIB	-	GFP / reporter gene	6.17 µM
COc1ccc(Nc2nnc(C(C)NS(=O)(=O)c3ccc(Cl)cc3)s2)cc1	IIIB	-	MTT	>21.38 µM
O=C(NCc1c(F)cc(F)cc1F)c1cn2c(c(O)c1=O)C(=O)N[C@H]1CCCC[C@H]12	IIIB	-	luminescence	0.0022 µM
CC(=O)c1cc(-c2ccccc2)n(-c2cccc(N=[N+]=[N-])c2)c1C	-	-	cytopathic effect / MTT	>6.3 µM
O=c1ccn([C@H]2C=C(CO)CS2)c(=O)[nH]1	-	-	-	>100 µg/mL
COC(=O)c1sccc1NC(=O)CSc1nnnn1-c1c(C)cc(C)cc1C	-	-	p24	<10 µM
O=C1c2ccccc2N(Cc2ccccc2)S(=O)(=O)N1Cc1ccc(Cl)cc1	IIIB	-	cytopathic effect	23.2–46.8 µM
COc1ccc(S(=O)(=O)Nc2ccc(-c3nnc(-c4ccc(C)cc4)o3)cc2)cc1	IIIB	-	cytopathic effect	>94 µg/mL
N#Cc1c(SCCCSc2nsc(-c3ccccc3)c2C#N)nsc1-c1ccccc1	IIIB	-	cytopathic effect	>125 µg/mL
O=C1c2ccccc2N(Cc2ccccc2Cl)S(=O)(=O)N1COCc1ccccc1	IIIB	-	cytopathic effect	17.9–32.1 µM
COC(=O)c1ccc(NC(=O)CSc2nnnn2-c2c(C)cc(C)cc2C)c(Cl)c1	-	-	p24	<10 µM
COC(=O)C(C)(C)NP(=O)(OC[C@H]1C=C[C@@H](n2cnc3c(N)ncnc32)C1)Oc1ccccc1	-	-	cytopathic effect / MTS	0.14 µM
N#Cc1cc2ccc(N[C@H]3CCNC3)cc2n(-c2ccc([N+](=O)[O-])cc2)c1=O	IIIB	-	GFP / reporter gene	6.54 µM
CC(NS(=O)(=O)c1ccc(Cl)cc1)c1nnc(Nc2ccc(F)cc2)s1	IIIB	-	MTT	>6.85 µM
O=c1[nH]c(=O)n([C@@H]2C=C(CO)CO2)cc1Br	-	-	-	>100 µg/mL
Cc1cn([C@H]2C[C@H](N=[N+]=[N-])[C@@H](CO)O2)c(=O)[nH]c1=O	IIIB	-	cytopathic effect	0.0003 µg/mL
CCOC(=O)c1cc2c3cccc(OC)c3c3c(N)cccc3n2c1C	-	-	cytopathic effect / MTT	120 µM
COc1ccc(Nc2nnc(C(NS(=O)(=O)c3ccc(OC)cc3)C(C)C)s2)cc1	IIIB	-	MTT	>21.03 µM
COc1nc(N(C)C)nc(Cc2c(F)cccc2F)c1C	IIIB	-	MTT	>67 µM
CC[C@@H](NS(=O)(=O)c1ccc(OC)cc1)c1n[nH]c(=S)o1	IIIB	-	cytopathic effect	>125 µg/mL

For reference, 5 entries again:

SMILES,strain,changes,read by,value
Cc1ccc(S(=O)(=O)NC(Cc2ccccc2)c2nnc(Nc3ccc(Br)cc3)s2)cc1,IIIB,-,MTT,>1.58 µM
CN1C(=O)[C@]2(C[C@@H]2c2ccc(Cl)cc2)c2ccccc21,IIIB,-,MTT,>7.6 µg/mL
N#Cc1c(N)c2cc(Br)ccc2n(-c2ccc([N+](=O)[O-])cc2)c1=O,IIIB,-,GFP / reporter gene,>100 µM
O=C(NCc1c(F)cc(F)cc1F)c1cn2c(c(O)c1=O)C(=O)N[C@H]1CCCC[C@H]12,IIIB,-,luminescence,0.0022 µM
Cc1ccc(S(=O)(=O)NC(C)c2nnc(Nc3ccc(Br)cc3)s2)cc1,IIIB,-,MTT,>8.09 µM